Results of unrelated studies side by side (data: NIAID ChemDB).

All rows: tests in culture; agent: HIV-1; method: cytopathic effect / XTT; measure: EC50

ECn: concentration that inhibits the pathogen or its effect by n%.

CN(C)CCCNC(=O)c1ccccc1SSc1ccccc1C(=O)NCCCN(C)C ; cells: CEM ; value: 6.5 µM
Cn1cc(NC(=O)Nc2cc(C(=O)Nc3cc(C(=O)Nc4cc(P(=O)(O)O)c5cccc(P(=O)(O)O)c5c4)n(C)c3)n(C)c2)cc1C(=O)Nc1cc(C(=O)Nc2cc(P(=O)(O)O)c3cccc(P(=O)(O)O)c3c2)n(C)c1 ; strain or isolate: RF ; cells: CEM + CEM-SS ; value: 6.6 µM
CCCCCCCCCCCCCCCC(=O)Nc1ccn([C@H]2C[C@H](OP(=O)(O)OC[C@H]3O[C@@H](n4cc(C)c(=O)[nH]c4=O)C[C@@H]3N=[N+]=[N-])[C@@H](CO)O2)c(=O)n1 ; cells: CEM + CEM-SS ; value: 1.58 µM
Cc1occc1C(=S)Nc1ccc(Cl)c(C(=O)OC(C)C)c1 ; strain or isolate: NL4-3 ; cells: CEM + CEM-SS ; value: 0.03 µM
COC(=O)C[C@H](CCCCN)NC(=O)c1ccccc1SSc1ccccc1C(=O)N[C@@H](CCCCN)CC(=O)OC ; strain or isolate: IIIB ; cells: CEM ; value: 10.4 µM
CC(C)=CCOc1cc(NC(=S)c2ccoc2C)ccc1Cl ; strain or isolate: UC781-R (RT-Y181C) ; cells: CEM + CEM-SS ; mutations: RT-Y181C ; value: 1 µM
COc1ccc(OC)c(NC(=O)c2ccccc2SSc2ccccc2C(=O)Nc2cc(OC)ccc2OC)c1 ; cells: CEM ; value: 19 µM
CN(C)C1=C(C#N)/C(=C2/C(C#N)=C(N(C)C)N(c3ccc([N+](=O)[O-])cc3)c3c2n(C)c2ccccc32)c2c(c3ccccc3n2C)N1c1ccc([N+](=O)[O-])cc1 ; strain or isolate: 6R AZT-resistant (RT D67N K70R T215Y K219Q) ; cells: CEM + CEM-SS ; mutations: RT-D67N K70R T215Y K219Q ; value: 12–16.6 µM
CCC[C@@H](CCC(=O)O)NC(=O)c1ccccc1SSc1ccccc1C(=O)N[C@@H](CCC)CCC(=O)O ; strain or isolate: IIIB ; cells: CEM ; value: 2.5 µM
Nc1ccc(NC(=O)c2ccccc2SSc2ccccc2C(=O)Nc2ccc(N)cc2)cc1 ; cells: CEM ; value: 7 µM
CCCc1cc(=O)oc2c3c(c4c(c12)OC(C)(C)CC4)O[C@@H](C)[C@H](C)[C@@H]3O ; strain or isolate: 3TC-resistant (RT M184V) ; cells: CEM + CEM-SS ; mutations: RT-M184V ; value: 1 µM
COc1cc(-c2ccc(N=Nc3ccc4c(S(=O)(=O)O)cc(S(=O)(=O)O)c(N)c4c3O)c(OC)c2)ccc1N=Nc1ccc2c(S(=O)(=O)O)cc(S(=O)(=O)O)c(N)c2c1O ; strain or isolate: G ; cells: CEM + CEM-SS ; value: 0.6 µM
CCCCCCCCCCCCCCCC(=O)Nc1ccn([C@H]2CC[C@@H](COP(=O)(O)O[C@H]3C[C@H](n4cc(C)c(=O)[nH]c4=O)O[C@@H]3CO)O2)c(=O)n1 ; strain or isolate: Calo-resistant (RT T139I) ; cells: CEM + CEM-SS ; mutations: Calanolide-resistant (RT T139I) ; value: 0.151 µM
Cc1occc1C(=S)Nc1ccc(Cl)c(/C=N/OC(C)(C)C)c1 ; strain or isolate: NL4-3 ; cells: CEM + CEM-SS ; mutations: RT-L74V ; value: 0.07 µM
O=C(NC1(C(=O)O)CCCC1)c1ccccc1SSc1ccccc1C(=O)NC1(C(=O)O)CCCC1 ; strain or isolate: IIIB ; cells: CEM ; value: >16 µM
Cn1cc([N+](=O)[O-])cc1C(=O)Nc1cc(C(=O)Nc2ccc(S(=O)(=O)O)c3cc(S(=O)(=O)O)ccc23)n(C)c1 ; strain or isolate: RF ; cells: CEM + CEM-SS ; value: >200 µM
CCNC(=O)c1ccccc1SSc1ccccc1C(=O)NCC ; cells: CEM ; value: >5.1 µM
Cc1occc1C(=S)Nc1ccc(Cl)c(C(=O)OCC2CC2)c1 ; strain or isolate: NL4-3 ; cells: CEM + CEM-SS ; mutations: RT-L100I ; value: 1.1 µM
Cn1cc(NC(=O)Nc2cc(C(=O)Nc3cc(C(=O)Nc4cc(S(=O)(=O)O)c5cc(S(=O)(=O)O)cc(S(=O)(=O)O)c5c4)n(C)c3)n(C)c2)cc1C(=O)Nc1cc(C(=O)Nc2cc(S(=O)(=O)O)c3cc(S(=O)(=O)O)cc(S(=O)(=O)O)c3c2)n(C)c1 ; strain or isolate: G762-3 ; cells: CEM + CEM-SS ; value: 0.2 µM
CC=CCOc1cc(NC(=S)c2ccoc2C)ccc1OC ; strain or isolate: 4xAZT(RT-D67N K70R T215Y K219Q) ; cells: CEM + CEM-SS ; mutations: RT-D67N K70R T215Y K219Q ; value: 0.03 µM
Cn1cc(NC(=O)Nc2cc(C(=O)Nc3cc(C(=O)Nc4ccc(P(=O)(O)O)c5cc(P(=O)(O)O)ccc45)n(C)c3)n(C)c2)cc1C(=O)Nc1cc(C(=O)Nc2ccc(P(=O)(O)O)c3cc(P(=O)(O)O)ccc23)n(C)c1 ; strain or isolate: A17 ; cells: CEM + CEM-SS ; value: 1.3 µM
CN1N=C(N)c2cn([C@@H]3O[C@H](COP(=O)(O)O)[C@@H](O)[C@H]3O)c3ncnc1c23 ; strain or isolate: LAV ; cells: CEM + CEM-SS ; value: 0.07 µM
O=C(Nc1ncccn1)c1ccccc1SSc1ccccc1C(=O)Nc1ncccn1 ; cells: CEM ; value: >6.2 µM
O=C(O)CCCNC(=O)c1ccccc1SSc1ccccc1C(=O)NCCCC(=O)O ; strain or isolate: IIIB ; cells: CEM ; value: 3.7 µM
O=C(NNC(=O)c1ccccc1SSc1ccccc1C(=O)NNC(=O)c1ccncc1)c1ccncc1 ; cells: CEM ; value: 8.2 µM
Cn1cc(NC(=O)Nc2cc(C(=O)Nc3cc(C(=O)Nc4ccc5cc(S(=O)(=O)O)cc(S(=O)(=O)O)c5c4)n(C)c3)n(C)c2)cc1C(=O)Nc1cc(C(=O)Nc2ccc3cc(S(=O)(=O)O)cc(S(=O)(=O)O)c3c2)n(C)c1 ; strain or isolate: RF ; cells: CEM + CEM-SS ; value: 29.6 µM
CC(C)O/N=C/c1cc(NC(=S)OC(C)C)ccc1Cl ; strain or isolate: RF ; cells: CEM + CEM-SS ; value: 0.013 µM
Cn1cc(NC(=O)Nc2cc(C(=O)Nc3cc(C(=O)Nc4ccc(S(=O)(=O)O)c5cc(S(=O)(=O)O)ccc45)n(C)c3)n(C)c2)cc1C(=O)Nc1cc(C(=O)Nc2ccc(S(=O)(=O)O)c3cc(S(=O)(=O)O)ccc23)n(C)c1 ; strain or isolate: IIIB ; cells: MT-4 ; value: 3.3 µM
CCCc1cc(=O)oc2c3c(c4c(c12)OC(C)(C)CC4)O[C@H](C)[C@@H](C)C3=O ; mutations: RT-Y181C ; value: 2.1 µM
COc1cc(-c2ccc(N=Nc3ccc4c(S(=O)(=O)O)cc(S(=O)(=O)O)c(N)c4c3O)c(OC)c2)ccc1N=Nc1ccc2c(S(=O)(=O)O)cc(S(=O)(=O)O)c(N)c2c1O ; strain or isolate: G691-2 ; cells: CEM + CEM-SS ; value: 3.9 µM
CC(C)=CCOc1cc(NC(=S)c2ccsc2C)ccc1Cl ; strain or isolate: Diphenyl sulfone-resistant (RT-Y181C) ; cells: CEM + CEM-SS ; mutations: RT-Y181C ; value: 0.2 µM
[O-][n+]1onc2ncnc(N3CC[N+]4(CC3)CC[N+]3(CCN(c5ncnc6no[n+]([O-])c56)CC3)CC4)c21 ; strain or isolate: Diphenyl sulfone-resistant (RT-Y181C) ; cells: MT-4 ; mutations: RT-Y181C ; value: 1.2 µM
O=C(O)CC[C@H](Cc1ccccc1)NC(=O)c1ccccc1SSc1ccccc1C(=O)N[C@H](CCC(=O)O)Cc1ccccc1 ; strain or isolate: IIIB ; cells: CEM ; value: 2.1 µM
C=CCO/N=C/c1cc(NC(=S)c2ccoc2C)ccc1Cl ; strain or isolate: 4XAZT/Y181C (RT D67N K70R Y181C T215Y K219Q) ; cells: CEM + CEM-SS ; mutations: RT-D67N K70R Y181C T215Y K219Q ; value: 0.3 µM

Repeating the first 4 entries:

| smiles | strain or isolate | cells | mutations | value |
|---|---|---|---|---|
| CN(C)CCCNC(=O)c1ccccc1SSc1ccccc1C(=O)NCCCN(C)C |  | CEM |  | 6.5 µM |
| Cn1cc(NC(=O)Nc2cc(C(=O)Nc3cc(C(=O)Nc4cc(P(=O)(O)O)c5cccc(P(=O)(O)O)c5c4)n(C)c3)n(C)c2)cc1C(=O)Nc1cc(C(=O)Nc2cc(P(=O)(O)O)c3cccc(P(=O)(O)O)c3c2)n(C)c1 | RF | CEM + CEM-SS |  | 6.6 µM |
| CCCCCCCCCCCCCCCC(=O)Nc1ccn([C@H]2C[C@H](OP(=O)(O)OC[C@H]3O[C@@H](n4cc(C)c(=O)[nH]c4=O)C[C@@H]3N=[N+]=[N-])[C@@H](CO)O2)c(=O)n1 |  | CEM + CEM-SS |  | 1.58 µM |
| Cc1occc1C(=S)Nc1ccc(Cl)c(C(=O)OC(C)C)c1 | NL4-3 | CEM + CEM-SS |  | 0.03 µM |

Two numbers with a dash give a range or band. Neighbouring rows are from separate reports. Blank or dashed fields: not listed here.